A mixed list of measured activities; the numbers were collected in NIAID ChemDB.

All rows: growth or infection tests; agent: HIV-1; measure: EC50

Rows are shuffled and stem from different studies. An empty or dashed field is not shown. ECn is the concentration giving n% inhibition of infection, replication or growth.

| SMILES | method | strain or isolate | cell line | value |
|---|---|---|---|---|
| CCOC(=O)c1nnsc1Nc1ccccc1Nc1snnc1C(=O)OCC | p24 | NL4.3/AMD3100R | C8166 | 8 µM |
| COC(=O)N[C@H](C(=O)NN(CC[C@@]1(Cc2ccccc2)C(=O)N(C2c3ccccc3C[C@H]2O)C[C@@H]1O)Cc1ccc(Br)cc1)C(C)(C)C | XTT |  | MT-4 | 2.5 µM |
| CC(C)c1ccnc(Nc2ccc(C#N)c(Oc3cccc(/C=C/C#N)c3)c2)n1 | MTT | IIIB | MT-2 | 0.046 µM |
| Cc1cn([C@@H]2O[C@H](CO)C3(OS(=O)(=O)C=C3N)[C@H]2O[Si](C)(C)C(C)(C)C)c(=O)[nH]c1=O | cytopathic effect / trypan blue | IIIB | MT-4 | >40 µg/mL |
| COCCOc1cc(Cl)ccc1C(=O)NC[C@H](O)[C@@]12CC[C@]3(C)[C@H](CC[C@@H]4[C@@]5(C)CC[C@H](OC(=O)[C@H]6C[C@@H](C(=O)O)C6(C)C)C(C)(C)[C@@H]5CC[C@]43C)C1=C(C(C)C)C(=O)C2 | p24 / ELISA | 92HT599 | MT-2 | <1 µM |
| O=c1ccn([C@@H]2C[C@@H](F)[C@H](CO)O2)c(=O)[nH]1 | RT activity | LAV | PBM | >100 µM |
| Cc1cn(C2CC(N=[N+]=[N-])C(COC(C(=O)O)P(=O)(O)OP(=O)(O)O)O2)c(=O)[nH]c1=O | cytopathic effect / syncytia | IIIB | CEM | 35 µg/mL |
| COC(=O)N[C@H](C(=O)NN(CC[C@]1(Cc2ccccc2)C(=O)N(C2c3ccccc3C[C@H]2O)C[C@@H]1O)Cc1ccc(Br)cc1)C(C)(C)C | XTT |  | MT-4 | 2.5 µM |
| Nc1ncnc2c1ncn2[C@H]1C[C@H](S)[C@@H](CO)O1 | ELISA |  | MT-4 | >100 µM |
| COC(=O)N[C@H](C(=O)NN(CC[C@@]1(Cc2ccccc2)C(=O)N(C2c3ccccc3C[C@H]2O)C[C@@H]1O)Cc1ccc(-c2cccnc2)cc1)C(C)(C)C | XTT |  | MT-4 | 2.5 µM |
| CCCCCCCCCCCCCCCC(=O)Nc1ccn([C@H]2CC[C@@H](COP(=O)(O)O[C@H]3C[C@H](n4cc(C)c(=O)[nH]c4=O)O[C@@H]3CO)O2)c(=O)n1 | cytopathic effect / XTT |  | CEM + CEM-SS | 0.0763 µM |
| CC(C)C1=C2[C@H]3CC[C@@H]4[C@@]5(C)CC[C@H](OC(=O)[C@H]6C[C@@H](C(=O)O)C6(C)C)C(C)(C)[C@@H]5CC[C@@]4(C)[C@]3(C)CC[C@@]2(CCNCC2(NC(=O)c3ccc(Cl)cc3)CCC2)CC1=O | p24 / ELISA | 92HT599 | MT-2 | <1 µM |
| COc1nc(Nc2ccc(C#N)c(Oc3cccc(/C=C/C#N)c3)c2)nc(OC)n1 | MTT | IIIB | MT-2 | 0.85 µM |
| CCCCCCCCCCCCCCCCCCCCCCOCC(C)(COCCCCCCCCCCCCCCCCCCCCCC)CO[C@]1(C(=O)O)C[C@H](OS(=O)(=O)O)[C@@H](NC(C)=O)[C@H]([C@H](OS(=O)(=O)O)[C@@H](COS(=O)(=O)O)OS(=O)(=O)O)O1 | RT activity | IIIB | H9 | 1.5 µg/mL |
| CC(C)C1=C2[C@H]3CC[C@@H]4[C@@]5(C)CC[C@H](OC(=O)[C@H]6C[C@@H](C(=O)O)C6(C)C)C(C)(C)[C@@H]5CC[C@@]4(C)[C@]3(C)CC[C@@]2(CCNCC(C)(C)NC(=O)CN2CCS(=O)(=O)CC2)CC1=O | p24 / ELISA | 92HT599 | MT-2 | <1 µM |
| N#C/C=C/c1cc(F)cc(Oc2cc(Nc3nccc(C4CC4)n3)ccc2C#N)c1 | MTT | IIIB | MT-2 | 0.0085 µM |
| CC(C)C1=C2[C@H]3CC[C@@H]4[C@@]5(C)CC[C@H](OC(=O)[C@H]6C[C@@H](C(=O)O)C6(C)C)C(C)(C)[C@@H]5CC[C@@]4(C)[C@]3(C)CC[C@@]2([C@@H](O)CNC(=O)c2ccc(O[C@H]3CCOC3)cc2)CC1=O | p24 / ELISA | 92HT599 | MT-2 | <1 µM |
| N#Cc1cc(/C=C/Cl)cc(Oc2cc(Nc3nccc(C4CC4)n3)ccc2C#N)c1 | MTT | IIIB | MT-2 | 0.49 µM |
| COC(=O)N[C@H](C(=O)NN(CC[C@@]1(Cc2ccccc2)C(=O)N(C2c3ccccc3C[C@H]2O)C[C@H]1O)Cc1ccc(Br)cc1)C(C)(C)C | XTT |  | MT-4 | 2.5 µM |
| Cc1cn([C@@H]2O[C@H](CO)[C@@H](F)[C@H]2O)c(=O)[nH]c1=O |  |  | MT-4 | >500 µM |
| COC(=O)N[C@H](C(=O)NN(CCC[C@@]1(Cc2ccccc2)C(=O)N(C2c3ccccc3C[C@H]2O)C[C@H]1O)Cc1ccc(-c2ccccn2)cc1)C(C)(C)C | XTT |  | MT-4 | 2.5 µM |
| COc1cc(C)c(-c2ccc(O)c3c2C[C@@H](C)N[C@@H]3C)c2ccc(-c3ccc4c(-c5ccc(O)c6c5C[C@@H](C)N[C@@H]6C)c(C)cc(OC)c4c3O)c(O)c12 | cytopathic effect / XTT | RF | CEM + CEM-SS | 27 µg/mL |
| COC(=O)N[C@H](C(=O)NN(CCC[C@@]1(Cc2ccccc2)C(=O)N(C2c3ccccc3C[C@H]2O)C[C@H]1O)Cc1ccc(-c2cccnc2)cc1)C(C)(C)C | XTT |  | MT-4 | 2.5 µM |
| Nc1cccc2c1C(=O)N(C1C3CC4CC(C3)CC1C4)C2=O | syncytia | IIIB | CEM | >4 µg/mL |
| COC(=O)C(OCC1OC(n2cc(C)c(=O)[nH]c2=O)CC1N=[N+]=[N-])P(=O)(O)O | cytopathic effect / syncytia | IIIB | CEM | 10 µg/mL |
| COc1ccnc(Nc2ccc(C#N)c(Oc3cc(C)cc(C)c3)c2)n1 | MTT | IIIB | MT-2 | 0.49 µM |
| CC(C)C1=C2[C@H]3CC[C@@H]4[C@@]5(C)CC[C@H](OC(=O)[C@H]6C[C@@H](C(=O)O)C6(C)C)C(C)(C)[C@@H]5CC[C@@]4(C)[C@]3(C)CC[C@@]2(CC(=O)NC(C)(CN)CNC(=O)c2ccc(Cl)cc2)CC1=O | p24 / ELISA | 92HT599 | MT-2 | <1 µM |
| Nc1ncnc2c1ncn2[C@@H]1C[C@@H](F)[C@H](CO)O1 | RT activity | LAV | PBM | >100 µM |
| O=C(NCc1ccc(F)cc1)C1C(=O)N(O)C(=O)c2ccccc21 |  | IIIB | PBMC | 0.458 µM |
| Cc1cc(/C=C/C#N)cc(Oc2cc(Nc3ncnc(C4CC4)n3)ccc2C#N)c1 | MTT | IIIB | MT-2 | 0.0017 µM |
| COC(=O)N[C@H](C(=O)NN(CC[C@@]1(Cc2ccccc2)C(=O)N(C2c3ccccc3C[C@H]2O)C[C@H]1O)Cc1ccc(-c2cccnc2)cc1)C(C)(C)C | XTT |  | MT-4 | 2.5 µM |
| Nc1cccc2c1C(=O)N(C13CC4CC(CC(C4)C1)C3)C2=O | syncytia | IIIB | CEM | >4 µg/mL |
| COC(=O)C(OCC1OC(n2cc(C)c(=O)[nH]c2=O)CC1N=[N+]=[N-])P(=O)(O)OP(=O)(O)O | cytopathic effect / syncytia | IIIB | CEM | 56 µg/mL |
| O=C1c2ccccc2C(=O)N1C12CC3CC(CC(C3)C1)C2 | syncytia | IIIB | CEM | >4 µg/mL |
| COc1ccnc(Nc2ccc(Cl)c(Oc3cc(Cl)cc(Cl)c3)c2)n1 | MTT | IIIB | MT-2 | 0.8 µM |
| O=C1NC[C@@H]2C34CC5CC(CC(C5)[C@H]3[C@]2(O)c2ccccc21)C4 | syncytia | IIIB | CEM | >20 µg/mL |
| COCCOc1ccc(C(=O)NC[C@H](O)[C@@]23CC[C@]4(C)[C@H](CC[C@@H]5[C@@]6(C)CC[C@H](OC(=O)[C@H]7C[C@@H](C(=O)O)C7(C)C)C(C)(C)[C@@H]6CC[C@]54C)C2=C(C(C)C)C(=O)C3)cc1 | p24 / ELISA | 92HT599 | MT-2 | <1 µM |
| O=C1c2ccccc2C(=O)N1CCCC1C2CC3CC(C2)CC1C3 | syncytia | IIIB | CEM | >4 µg/mL |
| Nc1ccn([C@@H]2O[C@H](CO)[C@@H](F)[C@H]2O)c(=O)n1 |  |  | MT-4 | >20 µM |